PubChem BioAssay AID1259414 – Drosophila RNAi Screening Center, 2018
Test: 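Genome-wide screen for host control of endosymbiont load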 (primary screen). Cells: Drosophila JW18 cells infected with Wolbachia. Reagents: long dsRNA against Drosophila genes, 0.25 µg dsRNA per well of a 384-well plate. Duration: 5 days. Conditions: cells persistently infected with Wolbachia before knock-down; no added drug. Read-out: 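Automated imaging of bacterial rRNA staining divided by host cell count, reported as plate-normalised robust z-score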. Reading the numbers: Wolbachia per cell robust z: higher = more Wolbachia per host cell than the plate typical. Active means: 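Hit when robust z is 1.5 or more, or -1.5 or less, in at least two of three replicates; excludes dsRNAs with several or no targets, genes not expressed in JW18 and well A1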.
The deposit covers about 24,000 reagents; below is an unselected part of those that have a named target and a result. In the full data, about 1,210 (5%) got an active call. 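Inactive calls also include excluded dsRNAs with several or no targets, genes unexpressed in JW18, and well A1, regardless of score.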 A plus sign joins genes that one reagent is predicted to hit.

| target | DRSC id | Wolbachia per cell robust z, rep 1 | Wolbachia per cell robust z, rep 2 | Wolbachia per cell robust z, rep 3 | call |
| --- | --- | --- | --- | --- | --- |
| Caf1-180 (Chromatin assembly factor 1, p180 subunit) | DRSC17807 | 1.69 | 0.822 | -0.28 | inactive |
| Caf1-180 (Chromatin assembly factor 1, p180 subunit) | DRSC24150 | 1.12 | 1.23 | 2.47 | inactive |
| CG6055 | DRSC02923 | 1.05 | 0.521 | 0.282 | inactive |
| thoc5 | DRSC04327 | 0.0839 | -0.145 | -1.96 | inactive |
| CG31949 | DRSC00110 | -0.441 | -0.423 | -0.944 | inactive |
| CG34138 | DRSC38592 | 0.242 | 0.392 | -0.14 | inactive |
| CG32633 | DRSC18987 | 0.158 | -1.51 | -0.584 | inactive |
| mEFG1 (mitochondrial translation elongation factor G 1) | DRSC02758 | 0.314 | 0.472 | 2.17 | inactive |
| Sgs5bis | DRSC16263 | -2.48 | 0.975 | 0.563 | inactive |
| trio | DRSC07928 | 0.12 | 1 | 1.14 | inactive |
| trio | DRSC08740 | 0.789 | 1.24 | 1.32 | inactive |
| trio | DRSC26700 | 1.63 | 0.544 | -1.01 | inactive |
| trio | DRSC40695 | 0.136 | -0.211 | 0.401 | inactive |
| CG33509 | DRSC37778 | 1.16 | -0.615 | 1.41 | inactive |
| Ldh (Lactate dehydrogenase) | DRSC11198 | 0.305 | 0.548 | 0.243 | inactive |
| CG14840 | DRSC14964 | 0.909 | 0.452 | 0.892 | inactive |
| CG14840 | DRSC27978 | 0.386 | -0.0682 | -0.00514 | inactive |
| Prosbeta1 (Proteasome beta1 subunit) | DRSC07159 | 2.94 | 0.965 | 5.67 | active |
| CG12541 | DRSC17839 | -0.0704 | 0.387 | 0.309 | inactive |
| CG12541 | DRSC28362 | -1.8 | -0.0581 | -1.41 | inactive |
| Capr (Caprin) | DRSC10346 | -0.274 | 0.981 | 0.256 | inactive |
| Capr (Caprin) | DRSC26777 | 0.318 | -0.216 | -0.668 | inactive |
| Xpd (Xeroderma pigmentosum D) | DRSC04666 | 1.13 | -0.0297 | -3.33 | inactive |
| Xpd (Xeroderma pigmentosum D) | DRSC27757 | 0.476 | -0.426 | -0.397 | inactive |
| lectin-24A | DRSC00604 | 0.888 | -1.69 | -2.18 | inactive |
| Tmhs (Tetraspan membrane protein in hair cell stereocilia) | DRSC08231 | -0.494 | -0.796 | -7.35 | inactive |
| lncRNA:CR32773 (long non-coding RNA:CR32773) | DRSC17330 | 0.373 | 1.05 | 0.355 | inactive |
| spn-E (spindle E) | DRSC17064 | 0.572 | 0.419 | 1.26 | inactive |
| spn-E (spindle E) | DRSC40807 | -0.542 | -0.0543 | -1.76 | inactive |
| beta3GalTII (beta-1,3-Galactosyltransferase II) | DRSC07253 | -1.6 | -5.11 | 0.602 | active |
| beta3GalTII (beta-1,3-Galactosyltransferase II) | DRSC29091 | -2.83 | -1.27 | -0.981 | inactive |
| CheA87a (Chemosensory protein A 87a) | DRSC14839 | -1.71 | 0.0773 | -1.31 | inactive |
| AANATL5 (Arylalkylamine N-acetyltransferase-like 5) | DRSC05994 | -2.87 | 0.335 | -1.94 | inactive |
| CG10466 | DRSC02060 | 0.715 | -0.391 | -0.0739 | inactive |
| CG30270 | DRSC22890 | -0.325 | -0.963 | -1.18 | inactive |
| ARY (Aldo-keto reductase on Y) | DRSC39036 | 0.543 | -1.6 | -0.191 | inactive |
| Cbp20 (cap binding protein 20) | DRSC16601 | -1.12 | 0.149 | -0.042 | inactive |
| mRpL14 (mitochondrial ribosomal protein L14) | DRSC18597 | -0.707 | 0.357 | -3.26 | inactive |
| mRpL14 (mitochondrial ribosomal protein L14) | DRSC24034 | -1.13 | -0.949 | -0.275 | inactive |
| CG7542 | DRSC10868 | 0.0389 | 1.48 | 0.99 | inactive |
| CG6048 | DRSC18398 | 0.887 | 0.894 | 1 | inactive |
| CG6048 | DRSC29218 | 0.682 | -0.116 | 0.579 | inactive |
| Larp4B (La-related protein 4B) | DRSC23201 | 0.124 | 1.17 | -0.38 | inactive |
| Larp4B (La-related protein 4B) | DRSC29411 | -0.33 | 0.164 | 1.13 | inactive |
| CG15743 | DRSC19709 | -0.0435 | 0.00129 | -5.18 | inactive |
| CG15743 | DRSC26389 | -0.329 | 0.951 | 1.08 | inactive |
| CG15743 | DRSC41575 | 0.288 | 1.22 | 0.685 | inactive |
| CG8401 | DRSC07165 | -0.175 | 0.124 | -0.129 | inactive |
| CG14207 | DRSC19562 | -0.437 | 0.051 | -0.818 | inactive |
| CG14207 | DRSC19563 | -1.04 | 0.231 | 0.74 | inactive |
| TfAP-2 (Transcription factor AP-2) | DRSC11601 | 0.651 | 0.415 | -0.445 | inactive |
| CG8117 | DRSC20082 | 0.284 | 0.801 | 0.698 | inactive |
| CG8117 | DRSC27713 | 0.116 | 1.94 | 1.05 | inactive |
| CG1265 | DRSC08288 | 0.0894 | -1.78 | -0.502 | inactive |
| His3:CG33809 + His3:CG31613 + His3:CG33842 + 20 more | DRSC21267 | 5.31 | 1.9 | 6.36 | inactive |
| sals (sarcomere length short) | DRSC14925 | -0.215 | -0.598 | -0.0478 | inactive |
| sals (sarcomere length short) | DRSC16113 | 0.214 | -0.112 | -0.0678 | inactive |
| sals (sarcomere length short) | DRSC28473 | 0.8 | 0.796 | 0.419 | inactive |
| CG34375 | DRSC14684 | 0.561 | 0.963 | 0.394 | inactive |
| CG34375 | DRSC14685 | 0.257 | -0.588 | -0.378 | inactive |
| CG34375 | DRSC24412 | -1.17 | -0.978 | 0.175 | inactive |
| eEF1alpha2 (eukaryotic translation elongation factor 1 alpha 2) | DRSC14079 | -7.37 | 1.27 | 0.48 | inactive |
| eEF1alpha2 (eukaryotic translation elongation factor 1 alpha 2) | DRSC16658 | 0.57 | 0.0329 | 0.101 | inactive |
| CG16798 | DRSC02517 | -0.641 | 0.863 | 0.239 | inactive |
| Mco3 (Multicopper oxidase 3) | DRSC15926 | 0.513 | -2.1 | -0.881 | inactive |
| CG31600 | DRSC22541 | 0.564 | 0.976 | 1.74 | inactive |
| CG31600 | DRSC30096 | 0.137 | -1.15 | 0.115 | inactive |
| RIOK2 (RIO kinase 2) | DRSC14413 | 1.13 | -0.00356 | 0.216 | inactive |

Entries above marked active (2):
| target | DRSC id | Wolbachia per cell robust z, rep 1 | Wolbachia per cell robust z, rep 2 | Wolbachia per cell robust z, rep 3 | call |
| --- | --- | --- | --- | --- | --- |
| Prosbeta1 (Proteasome beta1 subunit) | DRSC07159 | 2.94 | 0.965 | 5.67 | active |
| beta3GalTII (beta-1,3-Galactosyltransferase II) | DRSC07253 | -1.6 | -5.11 | 0.602 | active |
